Anti-infective test results gathered from many reports (values: NIAID ChemDB through PubChem).

All rows: whole-cell or culture tests; agent: Mycobacterium avium complex

Two numbers with a dash give a range or band.

| compound | method | strain or isolate | read-out | value |
|---|---|---|---|---|
| CC[C@@H](CO)NCCN[C@@H](CC)CO | - | 3350-4 | MIC | 7.5 µg/mL |
| CC(C)(N)C1CCN(c2c(F)cc3c(=O)c(C(=O)O)cn(C4CC4)c3c2F)C1 | - | PI12/39 | MIC | 2 µg/mL |
| CC1(CN)CCN(c2c(F)cc3c(=O)c(C(=O)O)cn(C4CC4)c3c2F)C1 | - | - | MIC90 | 32 µg/mL |
| CCn1cc(C(=O)O)c(=O)c2cc(F)c(N3CCNCC3)nc21 | - | CIPT 14031001 | MIC | 10 µg/mL |
| CN[C@@H]1[C@H](O[C@H]2[C@H](O[C@H]3[C@H](O)[C@@H](O)[C@H](N=C(N)N)[C@@H](O)[C@@H]3N=C(N)N)O[C@@H](C)[C@]2(O)C=O)O[C@@H](CO)[C@H](O)[C@H]1O | - | Isolate C-31 | MIC | >400 µg/mL |
| Cc1ccc(C)n1Cc1ccccc1 | - | 103317 | MIC | >16 µg/mL |
| NCC[C@H](O)C(=O)N[C@@H]1C[C@H](N)[C@@H](O[C@H]2O[C@H](CN)[C@@H](O)[C@H](O)[C@H]2O)[C@H](O)[C@H]1O[C@H]1O[C@H](CO)[C@@H](O)[C@H](N)[C@H]1O | - | LPR | MIC | 32 µg/mL |
| CC[C@@H](CO)NCCN[C@@H](CC)CO | - | - | MIC | <0.8 µg/mL |
| CC[C@H]1OC(=O)[C@H](C)[C@@H](O[C@H]2C[C@@](C)(OC)[C@@H](O)[C@H](C)O2)[C@H](C)[C@@H](O[C@@H]2O[C@H](C)C[C@H](N(C)C)[C@H]2O)[C@](C)(OC)C[C@@H](C)C(=O)[C@H](C)[C@@H](O)[C@]1(C)O | - | 28 strains | MIC50 | 2 µg/mL |
| CNC1CCN(c2c(F)cc3c(=O)c(C(=O)O)cn(C4CC4)c3c2F)C1 | - | - | MIC90 | 8 µg/mL |
| NC[C@H]1O[C@H](O[C@H]2[C@H](O)[C@@H](O[C@H]3O[C@H](CO)[C@@H](O)[C@H](N)[C@H]3O)[C@H](N)C[C@@H]2N)[C@H](O)[C@@H](O)[C@@H]1O | - | N-251 (HIV-) | MIC | 16 µg/mL |
| CO[C@H]1/C=C/O[C@@]2(C)Oc3c(C)c(O)c4c(O)c(c(/C=N/N5CCN(C)CC5)c(O)c4c3C2=O)NC(=O)/C(C)=C\C=C\[C@H](C)[C@H](O)[C@@H](C)[C@@H](O)[C@@H](C)[C@H](OC(C)=O)[C@@H]1C | - | Isolate A | MIC | 1 µg/mL |
| CO[C@H]1/C=C/O[C@@]2(C)Oc3c(C)c(O)c4c(O)c(c(/C=N/N5CCN(C)CC5)c(O)c4c3C2=O)NC(=O)/C(C)=C\C=C\[C@H](C)[C@H](O)[C@@H](C)[C@@H](O)[C@@H](C)[C@H](OC(C)=O)[C@@H]1C | - | 1257/HIV- | MIC | 2 µg/mL |
| O=C(O)c1cn(C2CC2)c2nc(N3CCN4CC3C4)c(F)cc2c1=O | - | - | MIC90 | 32 µg/mL |
| C[C@@H]1CN(c2c(F)c(N)c3c(=O)c(C(=O)O)cn(C4CC4)c3c2F)C[C@H](C)N1 | - | 20 strains | MIC50 | 1.56 µg/mL |
| CO[C@H]1/C=C/O[C@@]2(C)Oc3c(C)c(O)c4c(O)c(c5c(c4c3C2=O)NC2(CCN(CC(C)C)CC2)N=5)=NC(=O)/C(C)=C\C=C\[C@H](C)[C@H](O)[C@@H](C)[C@@H](O)[C@@H](C)[C@H](OC(C)=O)[C@@H]1C | - | MO-1 | MIC | 2 µg/mL |
| CO[C@H]1/C=C/O[C@@]2(C)Oc3c(C)c(O)c4c(O)c(c5c(c4c3C2=O)NC2(CCN(CC(C)C)CC2)N=5)=NC(=O)/C(C)=C\C=C\[C@H](C)[C@H](O)[C@@H](C)[C@@H](O)[C@@H](C)[C@H](OC(C)=O)[C@@H]1C | - | 20 strains | MIC90 | 5 µg/mL |
| Cc1c(CN2CCOCC2)cc(-c2ccc(Cl)cc2)n1Cc1ccccc1 | - | 103317 | MIC | >64 µg/mL |
| CC[C@H]1OC(=O)[C@H](C)[C@@H](O[C@H]2C[C@@](C)(OC)[C@@H](O)[C@H](C)O2)[C@H](C)[C@@H](O[C@@H]2O[C@H](C)C[C@H](N(C)C)[C@H]2O)[C@](C)(O)C[C@@H](C)CN(C)[C@H](C)[C@@H](O)[C@]1(C)O | - | 15 strains | MIC90 | 25 µg/mL |
| CN1CCCC1CCN=c1cc2n(-c3ccc(Cl)cc3)c3ccccc3nc-2cc1Nc1ccccc1 | - | 10 srtains | MIC90 | 0.83 µg/mL |
| Cc1c(CN2CCN(C)CC2)cc(-c2ccc(Cl)cc2)n1-c1ccc(Cl)cc1 | - | 103317 | MIC | 0.4 µg/mL |
| NC1CCN(c2nc3c(cc2F)c(=O)c(C(=O)O)cn3-c2ccc(F)cc2F)C1 | - | ATCC 35718 | MIC | >8 µg/mL |
| Cc1c(CN2CCN(C)CC2)c(CN2CCN(C)CC2)c(-c2ccc(Cl)cc2)n1C1CCCCC1 | - | 103317 | MIC | >64 µg/mL |
| CO[C@H]1/C=C/O[C@@]2(C)Oc3c(C)c(O)c4c(O)c(c(/C=N/N5CCN(C)CC5)c(O)c4c3C2=O)NC(=O)/C(C)=C\C=C\[C@H](C)[C@H](O)[C@@H](C)[C@@H](O)[C@@H](C)[C@H](OC(C)=O)[C@@H]1C | - | LPR | MIC | 16 µg/mL |
| C[C@@H]1CN(c2c(F)c(N)c3c(=O)c(C(=O)O)cn(C4CC4)c3c2F)C[C@H](C)N1 | - | 20 strains | MIC50 | 0.1–0.2 µg/mL |
| CO[C@H]1/C=C/O[C@@]2(C)Oc3c(C)c(O)c4c(O)c(c5c(c4c3C2=O)NC2(CCN(CC(C)C)CC2)N=5)=NC(=O)/C(C)=C\C=C\[C@H](C)[C@H](O)[C@@H](C)[C@@H](O)[C@@H](C)[C@H](OC(C)=O)[C@@H]1C | - | 2020-4 | MIC | 0.5 µg/mL |
| CNC1CCN(c2c(F)cc3c(=O)c(C(=O)O)cn(C4CC4)c3c2F)C1 | - | 14 strains | MIC50 | 2 µg/mL |
| CO[C@H]1/C=C/O[C@@]2(C)Oc3c(C)c(O)c4c(O)c(c5c(c4c3C2=O)NC2(CCN(CC(C)C)CC2)N=5)=NC(=O)/C(C)=C\C=C\[C@H](C)[C@H](O)[C@@H](C)[C@@H](O)[C@@H](C)[C@H](OC(C)=O)[C@@H]1C | - | 52 strains | MIC50 | 0.39 µg/mL |
| CO[C@H]1/C=C/O[C@@]2(C)Oc3c(C)c(O)c4c(O)c(c5c(c4c3C2=O)NC2(CCN(CC(C)C)CC2)N=5)=NC(=O)/C(C)=C\C=C\[C@H](C)[C@H](O)[C@@H](C)[C@@H](O)[C@@H](C)[C@H](OC(C)=O)[C@@H]1C | - | Isolate A | MIC | 0.06 µg/mL |
| Cc1c(CN2CCN(C)CC2)cc(-c2ccc(Cl)cc2)n1C1CCCCC1 | - | 103317 | MIC | >64 µg/mL |
| CO[C@H]1/C=C/O[C@@]2(C)Oc3c(C)c(O)c4c(O)c(c(N5CCN(Cc6c(C)cc(C)cc6C)CC5)c(O)c4c3C2=O)NC(=O)/C(C)=C\C=C\[C@H](C)[C@H](O)[C@@H](C)[C@@H](O)[C@@H](C)[C@H](OC(C)=O)[C@@H]1C | - | Isolate A | MIC | 0.03 µg/mL |
| O=C(O)c1cn(C2CC2)c2c(F)c(N3CCC(NC4CC4)C3)c(F)cc2c1=O | - | - | MIC50 | 1 µg/mL |
| CNn1cc(C(=O)O)c(=O)c2cc(F)c(N3CCN(C)CC3)cc21 | - | 22 strains | MIC50 | 8 µg/mL |
| CCN(CC)CC1CCN(c2c(F)cc3c(=O)c(C(=O)O)cn(C4CC4)c3c2F)C1 | - | 1988557 | MIC | 2 µg/mL |
| CCn1cc(C(=O)O)c(=O)c2cc(F)c(N3CCN(C)CC3)cc21 | - | CIPT 14031005 | MIC | 40 µg/mL |
| CCn1cc(C(=O)O)c(=O)c2cc(F)c(N3CCNCC3)cc21 | - | 22 strains | MIC90 | 16 µg/mL |
| CN(C)CC1CCN(c2c(F)cc3c(=O)c(C(=O)O)cn(C4CC4)c3c2F)C1 | - | - | MIC50 | 0.5 µg/mL |
| CN1CCN(CCCN=c2cc3n(-c4ccc(Cl)cc4)c4ccccc4nc-3cc2Nc2ccccc2)CC1 | - | 10 srtains | MIC90 | 3.3 µg/mL |
| CC(C)N=c1cc2n(-c3ccc(Cl)cc3)c3ccccc3nc-2cc1Nc1ccc(Cl)cc1 | - | 1295/HIV- | MIC | 0.12 µg/mL |
| CCCCCCn1c(-c2ccc(Cl)cc2)cc(CN2CCOCC2)c1C | - | 103317 | MIC | 16 µg/mL |
| NC[C@H]1O[C@H](O[C@H]2[C@H](O)[C@@H](O[C@H]3O[C@H](CO)[C@@H](O)[C@H](N)[C@H]3O)[C@H](N)C[C@@H]2N)[C@H](O)[C@@H](O)[C@@H]1O | - | - | MIC50 | <1.3 µg/mL |
| CC(C)N=c1cc2n(-c3ccc(Cl)cc3)c3ccccc3nc-2cc1Nc1ccc(Cl)cc1 | - | 101 | MIC | 3 µg/mL |
| O=C(O)c1cn(C2CC2)c2c(F)c(N3CCC(n4ccnc4)C3)c(F)cc2c1=O | - | PI12/39 | MIC | 8 µg/mL |
| CC1COc2c(N3CCN(C)CC3)c(F)cc3c(=O)c(C(=O)O)cn1c23 | - | - | MIC50 | 2–16 µg/mL |
| NCC1(O)CCN(c2c(F)cc3c(=O)c(C(=O)O)cn(N4CC4)c3c2F)C1 | - | 1988557 | MIC | 32 µg/mL |
| C[C@H]1COc2c(N3CCN(C)CC3)c(F)cc3c(=O)c(C(=O)O)cn1c23 | - | 20 strains | MIC90 | 25 µg/mL |
| CC1CN(c2c(F)cc3c(=O)c(C(=O)O)cn(C4CC4)c3c2F)CCN1 | - | PI12/39 | MIC | 1 µg/mL |
| CCOc1c(N2CCC(C(C)(C)N)C2)c(F)cc2c(=O)c(C(=O)O)cn(C3CC3)c12 | - | - | MIC90 | 8 µg/mL |
| CO[C@H]1/C=C/O[C@@]2(C)Oc3c(C)c(O)c4c(O)c(c5c(c4c3C2=O)NC2(CCN(CC(C)C)CC2)N=5)=NC(=O)/C(C)=C\C=C\[C@H](C)[C@H](O)[C@@H](C)[C@@H](O)[C@@H](C)[C@H](OC(C)=O)[C@@H]1C | - | 3350 | MBC | 1 µg/mL |
| Clc1ccccc1C(c1ccccc1)(c1ccccc1)n1ccnc1 | - | MO-1 | MIC | 0.015 µg/mL |
| Nc1ccc(C(=O)O)c(O)c1 | agar | 713 strains | EC50 | >2 µg/mL |
| CC1CCN(c2c(F)cc3c(=O)c(C(=O)O)cn(C4CC4)c3c2F)C1 | - | 14 strains | MIC90 | 8 µg/mL |
| CO[C@H]1/C=C/O[C@@]2(C)Oc3c(C)c(O)c4c(O)c(c(/C=N/N5CCN(C)CC5)c(O)c4c3C2=O)NC(=O)/C(C)=C\C=C\[C@H](C)[C@H](O)[C@@H](C)[C@@H](O)[C@@H](C)[C@H](OC(C)=O)[C@@H]1C | - | - | MIC50 | >1 µg/mL |
| O=C(O)c1cn(C2CC2)c2c(F)c(N3CCS(=O)CC3)c(F)cc2c1=O | - | 1172733 | MIC | 1 µg/mL |
| CO[C@H]1/C=C/O[C@@]2(C)Oc3c(C)c(O)c4c(=O)c(c5oc6cc(N7CCN(CC(C)C)CC7)cc(=O)c6nc5c4c3=C2O)NC(=O)/C(C)=C\C=C\[C@H](C)[C@H](O)[C@@H](C)[C@@H](O)[C@@H](C)[C@H](OC(C)=O)[C@@H]1C | - | 31F093T | MIC | 0.07 µg/mL |

6 of the rows above, restated:

compound,method,strain or isolate,read-out,value
CO[C@H]1/C=C/O[C@@]2(C)Oc3c(C)c(O)c4c(O)c(c5c(c4c3C2=O)NC2(CCN(CC(C)C)CC2)N=5)=NC(=O)/C(C)=C\C=C\[C@H](C)[C@H](O)[C@@H](C)[C@@H](O)[C@@H](C)[C@H](OC(C)=O)[C@@H]1C,-,3350,MBC,1 µg/mL
CC1COc2c(N3CCN(C)CC3)c(F)cc3c(=O)c(C(=O)O)cn1c23,-,-,MIC50,2–16 µg/mL
NC[C@H]1O[C@H](O[C@H]2[C@H](O)[C@@H](O[C@H]3O[C@H](CO)[C@@H](O)[C@H](N)[C@H]3O)[C@H](N)C[C@@H]2N)[C@H](O)[C@@H](O)[C@@H]1O,-,N-251 (HIV-),MIC,16 µg/mL
C[C@H]1COc2c(N3CCN(C)CC3)c(F)cc3c(=O)c(C(=O)O)cn1c23,-,20 strains,MIC90,25 µg/mL
CCCCCCn1c(-c2ccc(Cl)cc2)cc(CN2CCOCC2)c1C,-,103317,MIC,16 µg/mL
Cc1c(CN2CCN(C)CC2)cc(-c2ccc(Cl)cc2)n1C1CCCCC1,-,103317,MIC,>64 µg/mL

ECn is the concentration giving n% inhibition of infection, replication or growth. Neighbouring rows are from separate reports. A number after MIC or MFC names an inhibition level or a share of isolates. An empty or dashed field is not shown.